Reference: article PMC2565699
Construct, isoform or probe ends are uncertain for at least one entry. At least one result comes from cells or an extract, where the contact may be indirect. For part of these data: Where a protein sequence is shown, tags need not be part of it.

What was measured:
[1] = biological target: EF(2)mutURE3-BP (myc-tagged, calcium-insensitive dominant positive) (Entamoeba histolytica) (UniProt Q9GSV7); test: EMSA; conditions: 10 mM Tris-HCl pH 7.9, 50 mM NaCl, 1 mM EDTA, 0.05% nonfat milk powder, 3% glycerol, 0.2 ug poly(dIdC), 10 fmol probe, 2 ug nuclear extract, 20 C, 1 h, protein in an extract, protein details: N-terminal myc, label: 32P (Klenow) as probe, unlabeled as competitor
[2] = biological target: T1, URE3-BP (Entamoeba histolytica) (UniProt Q9GSV7); test: EMSA; conditions: low calcium, STOP-EF(2)mutURE3-BP extract, equivalent to EF(2)mut; 10 mM Tris-HCl pH 7.9, 50 mM NaCl, 1 mM EDTA, 0.05% nonfat milk powder, 3% glycerol, 0.2 ug poly(dIdC), 10 fmol probe, 2 ug nuclear extract, 20 C, 1 h; protein in an extract; label: 32P (Klenow) as probe, unlabeled as competitor
T1 sequence (looked up, limits assumed): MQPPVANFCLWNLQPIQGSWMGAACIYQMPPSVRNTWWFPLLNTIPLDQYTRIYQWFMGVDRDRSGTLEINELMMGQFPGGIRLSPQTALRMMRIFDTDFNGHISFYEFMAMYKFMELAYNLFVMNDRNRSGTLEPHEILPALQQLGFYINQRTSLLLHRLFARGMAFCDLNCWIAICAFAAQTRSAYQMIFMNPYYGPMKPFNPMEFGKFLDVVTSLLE

Measured: binding result

TGTTCCAAAAAGATATATTCTATTGAAAATAAAAGAAG (double strand) [hgl5-URE3 (wt)]
binds: [1]; added calcium | [1]; low calcium, equivalent to STOP control | [2]
